In PubChem BioAssay AID1224852 (National Center for Advancing Translational Sciences (NCATS), 2016) one finds protection, negative = more death data, which are given here for two molecules.

The structures appear in SMILES notation. The list shows a part of the results, in another mix than the full data. Inconclusive results are not listed. Activity calls are given as the source filed them. Calls come from the whole dose curve; as a rule, active = well fitted curve in the direction sought with a large enough effect (not every such curve was filed as active); inconclusive = small, poorly fitted or top-dose-only effect, or effect the other way, or another doubt; inactive = no such curve, though single readings can be large or run the other way.

A short description of the assay: Cell viability assay for measurement of the protective activity of small molecules against cell death caused by Zika virus infection in human neural progenitor cells (hNPCs).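 Note: 0% = ZIKV-infected cells without compound and 100% = uninfected cells.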 As to conditions: hNPC ZIKV-induced death protection, ATP luminescence, 72 h; at 46.1 µM (top of the series). The source says:
National Center for Advancing Translational Sciences [NCATS] Johns Hopkins University School of Medicine Florida State University Assay Overview: Zika virus infection causes cell death in certain cell types including human neural progenitor cells (hNPCs), astrocytes, and astrocytoma cell line (SNB-19). This cell viability assay measures the ATP content (level) in human neural progenitor cells (hNPCs) using a luminescence readout that is proportional to viable cell numbers. Decrease in the luminescence signal after Zika virus infection indicates the cell death caused by Zika virus. Small molecule inhibitors […] the decreased luminescence signal after Zika virus infection, indicating the protective effect of that small molecule on the cell death caused by Zika virus infection. […]
Assay Protocol Summary: The medium for hNPCs consists of DMEM/F12, N2 supplement (ThermoFisher, Cat.# 17502048), NEAA (ThermoFisher, Cat. # 11140050), 2 ug/ml heparin, 2 uM cyclopamine, and B27 (ThermoFisher, Cat. # 17504044). […] The luminescence intensity of the assay plates was measured using a ViewLux plate reader (PerkinElmer). […] The percentage inhibitions of the decreased cell viability by small molecule inhibitors were then calculated.

`C/C1=C2N=C(/C=C3N=C(/C(C)=C4\[N-][C@@](C)([C@@H]5N=C1[C@](C)(CCC(=O)NC[C@@H](C)OP(=O)([O-])O[C@H]1[C@@H](O)[C@@H](n6cnc7cc(C)c(C)cc76)O[C@@H]1CO)[C@H]5CC(N)=O)[C@@](C)(CC(N)=O)[C@@H]4CCC(N)=O)[C@@](C)(CC(N)=O)[C@@H]\3CCC(N)=O)C(C)(C)[C@@H]/2CCC(N)=O.[C-]#N.[Co+3]`: the protection, negative = more death was inactive: -3.97%.
The result for `CCOP(=O)(CC)Oc1ccc([N+](=O)[O-])cc1` (configuration not stated) reads inactive: 13.1%.
